PubChem BioAssay AID504761 | Drosophila RNAi Screening Center – 2011
The screen tested about 22,000 reagents; below is an unselected part of those that have a named target and a result. Over the whole deposit, 116 (0.52%) were called active. 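Calls depend on retest data that are not deposited; infection was ranked per plate without normalising between plates; the unit of the infection score is not given.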 Raw values are not corrected between plates. The numbers tell different reagents against one gene apart. Names joined by + are all predicted targets of the reagent. Further read-outs or replicates are left out here. Reagent sequences are not shown. Not stated in the record: the amount of reagent, the time to read-out.

Screen: 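Genome-wide fly cell screen for genes dengue virus requires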 (primary screen)
System: D.Mel-2 cells from Drosophila
Knock-down reagent: long dsRNA against Drosophila genes
Treatment: infection with dengue virus type 2; dose and infection time not stated
Measured: 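Per well on two replicate plates, imaging gave the percent of cells positive for viral envelope protein, ranked by infection, and a nuclear count of cells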
Reading the numbers: infection score: higher = more virus-infected cells; cell count: higher = more cells in the well
Call rule: 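Very low infection ranking in both replicate wells (chance probability at most 0.065), then a retest showing infection dropped 1.5-fold or more at p below 0.05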
Meaning of the calls: active = confirmed: knock-down lowers infection; inactive = not picked or not confirmed

r-cup: infection score, replicate 1 = 8.34; cell count, replicate 1 = 5920; call = inactive
Oatp30B: infection score, replicate 1 = 7.16; cell count, replicate 1 = 6191; call = inactive
Prosbeta2R2: infection score, replicate 1 = 6.05; cell count, replicate 1 = 6696; call = inactive
tal-1A + tal-2A + tal-AA + 1 more: infection score, replicate 1 = 2.33; cell count, replicate 1 = 6213; call = inactive
obst-H #1: infection score, replicate 1 = 6.79; cell count, replicate 1 = 5711; call = inactive
obst-H #2: infection score, replicate 1 = 4.86; cell count, replicate 1 = 5409; call = inactive
CG31798 #1: infection score, replicate 1 = 1.85; cell count, replicate 1 = 5990; call = inactive
CG31798 #2: infection score, replicate 1 = 17.7; cell count, replicate 1 = 5973; call = inactive
MED17: infection score, replicate 1 = 28.9; cell count, replicate 1 = 5648; call = inactive
HipHop: infection score, replicate 1 = 1.08; cell count, replicate 1 = 6137; call = inactive

2 consecutive reagents already listed, for reference:
obst-H #2: infection score, replicate 1 = 4.86; cell count, replicate 1 = 5409; call = inactive
CG31798 #1: infection score, replicate 1 = 1.85; cell count, replicate 1 = 5990; call = inactive

The listing continues.
Ugt37D1 #1: infection score, replicate 1 = 2.99; cell count, replicate 1 = 6161; call = inactive
Ugt37D1 #2: infection score, replicate 1 = 2.7; cell count, replicate 1 = 6338; call = inactive
CG33490: infection score, replicate 1 = 12.9; cell count, replicate 1 = 5334; call = inactive
RpS4: infection score, replicate 1 = 6.01; cell count, replicate 1 = 2544; call = inactive
robo1: infection score, replicate 1 = 9.37; cell count, replicate 1 = 6934; call = inactive
VhaM9.7-c #1: infection score, replicate 1 = 14; cell count, replicate 1 = 6155; call = inactive
VhaM9.7-c #2: infection score, replicate 1 = 5.82; cell count, replicate 1 = 6052; call = inactive
CG14868 #1: infection score, replicate 1 = 1.6; cell count, replicate 1 = 6760; call = inactive
CG14868 #2: infection score, replicate 1 = 9.27; cell count, replicate 1 = 6709; call = inactive
Mur2B #1: infection score, replicate 1 = 13.2; cell count, replicate 1 = 6200; call = inactive
Mur2B #2: infection score, replicate 1 = 8.63; cell count, replicate 1 = 6813; call = inactive
